# From patent US20220332769A1
# Several values for one entry are separate records, joined by “and”; a condition that tells them apart may be missing. Equal values may be shown once.
# Biological target: SARS CoV-1 spike on pseudotyped lentivirus (CoV-1 PVP) (SARS CoV-1) (UniProt P59594)
# Test: cell-based or functional assay
substance,measurement,value
Recombinant ACE2 protein (from UniProt Q9BYF1 18-740) (receptor),fold loss of potency against its activity on CoV-2 PVPs,4 fold and 5 fold
